Experimental data from patent US20240343781A1.

Target: SARS-CoV Spike (SARS-CoV) (UniProt P59594)
Test: SPR

Substance: S309
- Kd: 1.95 pM
